For two compounds, EC50 results are on record in patent US20160122307A1, “PERHYDROQUINOXALINE DERIVATIVES” (DR. AUGUST WOLFF GMBH & CO. KG ARZNEIMITTEL, priority 2013, published 2016).

Amino acid sequences for entries named in this document (tags omitted).
UniProt P41145, whole entry: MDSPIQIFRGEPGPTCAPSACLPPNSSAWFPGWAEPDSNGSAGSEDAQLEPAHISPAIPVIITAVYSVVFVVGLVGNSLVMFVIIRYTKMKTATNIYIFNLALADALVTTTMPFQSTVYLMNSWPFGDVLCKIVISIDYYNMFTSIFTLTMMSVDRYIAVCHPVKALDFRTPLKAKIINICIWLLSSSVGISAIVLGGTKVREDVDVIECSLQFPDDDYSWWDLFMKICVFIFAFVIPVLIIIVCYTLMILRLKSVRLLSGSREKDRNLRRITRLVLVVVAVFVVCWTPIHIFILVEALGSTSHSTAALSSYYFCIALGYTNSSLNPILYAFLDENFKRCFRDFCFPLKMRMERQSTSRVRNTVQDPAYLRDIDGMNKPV

The target in the test is Human opiate κ receptors (Homo sapiens, UniProt P41145). Nature of the test: κ opioid receptor functional assay, [35S]GTPγS binding (assay C). The class given is biochemical.

Consider `O=C(c1ccccc1)N1CCN(C(=O)Cc2ccc(Cl)c(Cl)c2)C2C(N3CCCC3)CCCC21` (centres unmarked) [L, reference compound], for which the EC50 was determined as 260 nM.

With `O=C(c1ccccc1)N1CCN(C(=O)Cc2ccc(Cl)c(Cl)c2)C2C(N3CCC(O)C3)CCCC21` (centres unmarked) [R, reference compound], the EC50 was 470 nM.
